According to paper PMC8601423 (PLoS ONE, 2021):

Target: human ACE2-Fc (Q18-S740) recombinant protein (human, UniProt Q9BYF1 18-740)
Test: fluorescence polarisation

B1: RBM1 (C-FITC) (peptide)
peptide: SKVGGNYNYLYRLFRKK
Kd: 207 nM
